Measured values published in the NIST ThermoML archive (doi:10.1016/j.jct.2018.04.005).

Experiment: xn = mol fraction of the nth substance listed
Settings: 100 kPa, Liquid, Vibrating tube method

CCCCOP(=O)(OCCCC)OCCCC [tributyl phosphate] + CCCC[n+]1ccn(C)c1.O=S(=O)([N-]S(=O)(=O)C(F)(F)F)C(F)(F)F
mass density [kg/m3]
Settings	x2 = 0.0659	x2 = 0.137	x2 = 0.2139	x2 = 0.2974	x2 = 0.3884	x2 = 0.4879	x2 = 0.5971	x2 = 0.7175	x2 = 0.8511
293.15 K	1009.68	1044.63	1082.25	1121.58	1164.45	1210.73	1260.68	1314.9	1375.5
298.15 K	1005.53	1040.39	1077.87	1117.07	1159.94	1205.98	1255.68	1309.6	1369.84
303.15 K	1001.37	1036.18	1073.68	1112.92	1155.77	1201.85	1251.66	1305.63	1366.03
308.15 K	996.93	1031.72	1069.25	1108.44	1151.25	1197.24	1247.04	1301.11	1361.36
313.15 K	992.72	1027.43	1064.92	1104.11	1146.79	1192.76	1242.51	1296.33	1356.59
318.15 K	988.96	1023.57	1061.02	1100.24	1142.87	1188.7	1238.42	1292.14	1352.27
323.15 K	984.71	1019.22	1056.6	1095.81	1138.41	1184.09	1233.83	1287.39	1347.43
